In PMC11617668, “Developing Allosteric Inhibitors of SARS‐CoV‐2 RNA‐Dependent RNA Polymerase” (Chemmedchem, 2024) one finds remaining activity data, which are given here for 1 compound.

The test addresses SARS‐CoV‐2 RdRp complex (nsp12, nsp7, nsp8) (Severe acute respiratory syndrome coronavirus 2, UniProt P0DTD1). Kind of test: Fluorescence-based RdRp polymerase assay (SYBR Green I RNA extension). The test is classed as biochemical. The conditions noted are these: 50 min, read-out: residual activity (RA) of the SARS‐CoV‐2 RdRp complex.

As to `CNC(=O)c1cc(Oc2ccc(NC(=O)Nc3ccc(Cl)c(C(F)(F)F)c3)cc2)ccn1` [sorafenib, reference compound], the remaining activity at 10 µM came out at 72%.
